The list shows a part of the results, in another mix than the full data. Activity calls are given as the source filed them.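 How the source made its calls: active means inhibition above the mean of all tested compounds plus 3 SD, set per campaign (cut at about 35% in these data); inactive means the rest.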
What follows are compounds tested on Hepatitis C virus NS3 helicase (assay: HCV NS3 DNA unwinding blockers – biochemical, Cy5 molecular beacon fluorescence, primary screen (AID 1800;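 further: 0% = DMSO wells and 100% = thioflavine S control wells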)). Settings: at 10.9 µM, hits give high values.
In short: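 assay system = NS3 helicase fragment of HCV | buffer or medium = MOPS pH 6.5, MgCl2, DTT, Tween20, BSA | timing = 60 min unwinding reaction at 25 °C after ATP addition | signal = Cy5 beacon fluorescence read at start and 1 h | read-out basis = % inhibition of unwinding | control set = low DMSO, high thioflavine S at 110 µM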
With `CP(=O)(Nc1ccc(SC(F)(F)F)cc1)Oc1ccccc1` (centres undefined) the inhibition was inactive: 3.58%. For `CCCOc1ccc(NP(C)(=O)Oc2ccc(Cl)cc2)cc1` (centres undefined), the inhibition was inactive: -10.5%. `CP(=S)(Nn1cnnc1)Oc1ccccc1` (centres undefined) was tested, and the inhibition was inactive: -7.42%. In the case of `CP(=O)(Nc1ccccc1Br)Oc1ccccc1` (centres undefined), the inhibition is reported as inactive: -9.8%. For `COc1ccccc1OP(C)(=O)Nc1ccccc1` (centres undefined), the inhibition was inactive: 4.76%. In the case of `CP(=O)(Oc1ccccc1)OC(c1ccccc1)C(F)(F)F` (centres undefined), the inhibition is reported as inactive: -0.11%. With `CP(=O)(Nc1ccc(SC(F)(F)F)cc1)Oc1ccc(Cl)cc1` (centres undefined) the inhibition was inactive: -16.2%. In the case of `Cc1cccc(C)c1OP(C)(=O)Nc1ccc(SC(F)(F)F)cc1` (centres undefined), the inhibition is reported as inactive: -3.94%. `Cc1cc(C)cc(OP(C)(=O)Nc2ccc(SC(F)(F)F)cc2)c1` (centres undefined) was tested, and the inhibition was inactive: -3.55%. For `CCc1ccc(OP(C)(=O)N2CCN(c3ccc([N+](=O)[O-])cc3)CC2)cc1` (centres undefined), the inhibition was inactive: -4.65%. For `CP(=O)(NC(=O)Nc1ccccc1)Oc1ccccc1` (centres undefined), the inhibition was inactive: -0.28%. `CCOC(=O)c1ccc(NP(C)(=O)Oc2ccc(OC)cc2)cc1` (centres undefined) was tested, and the inhibition was inactive: -11.9%. `CCOP(C)(=S)SCC(=O)NC(C)C(=O)O` (centres undefined) was tested, and the inhibition was inactive: 2.02%. In the case of `CP(=O)(Nc1ccccn1)Oc1ccc(Cl)cc1` (centres undefined), the inhibition is reported as inactive: -1.32%. `CCN(CC)CCCOC(=O)C(O)(c1ccccc1)c1ccccc1` was tested, and the inhibition was inactive: -4.35%. In the case of `O=[N+]([O-])c1ccc2c(c1)C=Nc1ccccc1O2`, the inhibition is reported as inactive: -21.4%. For `Cc1cccc(C)c1OP(C)(N)=O` (centres undefined), the inhibition was inactive: -3.19%. For `CC(C)(C)c1ccc(OP(C)(=O)Nc2ccc(SC(F)(F)F)cc2)cc1` (centres undefined), the inhibition was inactive: -9.4%. With `Cc1ccc(NP(C)(=O)Oc2ccccc2)c(C)c1` (centres undefined) the inhibition was inactive: -9.51%. For `COc1ccccc1OP(C)(=O)Nc1ccc(C)cc1` (centres undefined), the inhibition was inactive: 2.12%. In the case of `CCOC(=O)c1ccc(NP(C)(=O)Oc2ccccc2)cc1` (centres undefined), the inhibition is reported as inactive: -1.15%. In the case of `Cc1cc(C)cc(OP(C)(N)=O)c1` (centres undefined), the inhibition is reported as inactive: 12.8%. `COc1ccc(OP(C)(=O)Nc2cccc(F)c2)cc1` (centres undefined) was tested, and the inhibition was inactive: 0.18%. For `COc1ccccc1OP(C)(=O)Nc1cc(Cl)ccc1C` (centres undefined), the inhibition was inactive: 5.12%.

— PubChem BioAssay AID1800 (The Scripps Research Institute Molecular Screening Center, 2009)
